Target: wild-type ypFabV (Yersinia pestis, UniProt Q8Z9U1)
Format: biochemical

The chains behind the UniProt entries cited, without tags or fusion partners. Where a name states a change or a piece, a line headed by the entry shows the natural chain unless it says otherwise.
UniProt Q8Z9U1: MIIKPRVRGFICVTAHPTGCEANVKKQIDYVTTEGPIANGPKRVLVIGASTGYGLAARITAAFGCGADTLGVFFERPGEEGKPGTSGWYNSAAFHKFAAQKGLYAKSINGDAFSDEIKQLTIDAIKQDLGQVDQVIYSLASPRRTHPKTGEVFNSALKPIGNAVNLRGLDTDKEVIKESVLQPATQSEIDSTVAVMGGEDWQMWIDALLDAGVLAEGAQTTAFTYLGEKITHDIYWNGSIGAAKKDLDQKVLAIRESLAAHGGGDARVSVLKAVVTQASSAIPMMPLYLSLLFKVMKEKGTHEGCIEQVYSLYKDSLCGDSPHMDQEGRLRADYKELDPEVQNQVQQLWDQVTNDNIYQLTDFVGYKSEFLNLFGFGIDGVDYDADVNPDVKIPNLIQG

trans-2-octenoyl-ecACP
kcat, wild-type ypFabV: 14.9 ± 2.08 s⁻¹ | kcat/KM relative to octenoyl-CoA: 75 fold | Km (read-out: KM, wild-type ypFabV): 6 ± 2 µM

Reference: article PMC4887296 (Biochemistry, 2016)
